# Residue numbers refer to the chain shown, from its start.
# B1: TCN-522 (3212_I12) (antibody, V domains shown)
# VH: QVQLQQWGAGLLKPSETLSLTCTVSGGSLTDYSWNWIRQPPGKGLEWIGDTLHNGYTNYNPSLRGRVSISIDTSKNQVSLRLTSVTAADTALYYCARGSGGYGGFDYFGKLRTWDFWGQGTLVTVSS
# VL: DIQLTQSPSSLSASVGDRVTITCRASQGIRNDLGWYQQKPGNAPKRLIFGASSLQSGVPSRFSGSGSGTEFTLTISSLQPEDFATYYCLQHNSYPYTFGQGTKLEIK
# B2: TCN-537 (3194_D21) (antibody, V domains shown)
# VH: QVQLQQWGSGLLKPSETLSLTCAVYGGSFRDDYWTWIRQPPGKGLEWIGEINHSGRTNYNPSLKSRVTISVDTSLKQFSLKVISVTAADTAVYYCARGTSHVSRYFDWLPPTNWFDPWGQGTQVTVSS
# VL: DIVLTQSPGTLSLSPGERATLSCRASQSVSSSYLAWYQQKPGQAPRLVMYGAATRATGIPDRFSGSGSGPDFTLTISRLEPEDFAMYYCQQYGNSPITFGQGTRLEIK
# B3: TCN-527 (5086_C06) (antibody, V domains shown)
# VH: QVQLQESGPGLVKPSETLSLNCAVSGGSISNYYWSWIRQPPGKGLEWIGYISYNGRPKYNPSLTSRVTISVDTSKDQFSLELRSVTAADTALYYCARETRFGELLSPYDAFEIWGQGTMVTVSS
# VL: DIQMTQSPSSLSASVGDRVTMTCRASQNIRSYLNWYQQRPGTAPKLLIYAASTLHSGVPSRFSGGGSGTDFTLTINNLQPEDFASYYCQQSYDNPQTFGQGTKVEIK
# B4: TCN-526 (5084_C17) (antibody, V domains shown)
# VH: EVLMVESGGGLVQPGGSVRLSCVASGFSFSSHWMTWVRQAPGKGLEWVANIEDDGGDKYYVDSVKGRFIISRDNAKNSVYLQMNSLRAEDTAVYFCARGSGSSDRSDYDPHYYYYLDVWGKGATVTVSS
# VL: DIQLTQSPSSLSASVGDRVTITCRASQSISRYLNWYQQKPGKAPKLLLFAASTLLDGVPSRFSGSGSGTDFTLTISSLQPEDFATYYCQRNHSPSWTFGQGTRVEIK
# B5: TCN-563 (5237_B21) (antibody, V domains shown)
# VH: QVQLAQSGAEVKRPGSSVKVSCTASGGIFRKNAISWVRQAPGQGLEWMGGIIAVFNTANYAQKFQGRVKITADESGNTAYMELSSLRSDDTAVYYCASHPKYFYGSGSYPDFWGQGTLVTVSS
# VL: QSALTQPRSVSGSPGQSVTISCTGSSSDVGASNSVSWYQQHPGKAPKLVIYDVTERPSGVPHRFSGSKSGNTASLTVSGLQPEDEADYFCCAYGGKYLVVFGGGTKVTVL
# B6: TCN-555 (5246_L16) (antibody, V domains shown)
# VH: B5 VH with A5V, G66N, R87T
# VL: B5 VL with V18I, S25G, V29I, Y51F, E83D
# B7: TCN-529 (5297_H01) (antibody, V domains shown)
# VH: QITLRESGPTLVKPTQTLTLTCTFSGFSLSTNGVNVGWIRQPPGKALEWLALIYWDDDKRYSPSLKRRLTITKDTSKNQVVLTLTNMDPVDTATYYCAHRPDFYGDFEYWGPGTLVTVSS
# VL: QSALTQPASVSGSPGQSITISCTGSSSDIGGYNYVSWYQQHPGKAPKLMIYDVNNRPSGVSNRFSGSKSGNTASLTISGLQTDDEADYYCGSYTGSPHYVFGTGTKVTVL
# B8: TCN-553 (5261_C18) (antibody, V domains shown)
# VH: QVQVVQSGTEVKKPGSSVKVSCQTSGGRFMSYAITWVRQAPGQGLEWMGGIVPVFGTANYAQKFQGRVTITTDDSTRTAYMELSSLRSEDTAVYYCGFRYGSGYGFDSWGQGTLVTVSS
# VL: EIVLTQSPGTLSLSPGERATLSCRASQSVSSSYLAWYQKKPGQAPRLLIYGASTRATGIPDRFTGSGSGTDFTLSISRLEPEDFAVYYCQHFGTSVFTFGGGTKVEIK
# B9: TCN-523 (5248_A17) (antibody, V domains shown)
# VH: QVQLVQSGAEVKKPGSSVKVSCKASGGSFSNYAFSWVRQAPGQGLEWMGGTIPLLGTTNYAQKFQGRVTISADQFTSTAYMELGSLRSEDTAVYYCTRRKMTTAFDSWGQGTLVTVSS
# VL: QPVLTQPPSASASLGASVTLTCTLSSAYSNYKVDWYQQRPGKGPRFVMRVGTGGIVGSKGDGIPDRFSVLGSGLNRYLTIKNIQEEDESDYHCGADHGSGSNFVSPYVFGGGTKLTVL
# B10: TCN-528 (5087_P17) (antibody, V domains shown)
# VH: QVQLVQSGSEVKKPGASVKVSCKASGYTFTNYDINWIRQAPGQGLEWMGWINPNSGTTGSAQRFQGRVTITVDTSITTVYMELSSLRSDDTAIYYCARGRELLRLQHFLTDSQSERRDCFDPWGQGTLVTVSS
# VL: DIQMTQSPSSLSASVGDRVTITCRANQDIGIYLNWYQQNPGKVPKLLLHGASSLQGGVPSRFSASGSGTDFTLTIHSLQPEDLATYYCQQSRRLPYTFGQGTRVELK
# B11: TCN-534 (5249_B02) (antibody, V domains shown)
# VH: QVQLVQSGAEVKKPGSSVKVSCRESGGTFNGYTITWVRQAPGQGLEWMGGIIPMMGTVNYAQKLQGRVTITTDYFTKTAYMDLNNLRSEDTAMYYCVKIRYTGQQLLWGQGTLVTVSS
# VL: DIQMTQSPSTLSASIGDRVTITCRASQSIASWLAWYQQKPGKAPKLLIYEAVNLESGVPSRFSGSGSGTDFTLTISSLQPDDFATYFCQHYGTISQTFGGGTKVEIK
# How the values were obtained:
# [1] = target: recombinant homotrimeric HA, A/duck/Yangzhou/02/05 H8N4 (Influenza A virus …); assay: trimeric HA microarray; transfection supernatant set 2
# [2] = target: T1, recombinant homotrimeric HA, A/California/4/09 H1N1 (Influenza A virus A/California/4/09 …); assay: as above
# [3] = target: recombinant homotrimeric HA, A/chicken/Vietnam/NCVD-016/08 H5N1 (Influenza A virus …); assay: as above
# [4] = target: recombinant homotrimeric HA, A/Hong Kong/1073/99 H9N2 (Influenza A virus A/Hong Kong/1073/99 …); assay: as above
# [5] = target: T2, recombinant homotrimeric HA, A/Solomon Islands/3/06 H1N1 (Influenza A virus A/Solomon …); assay: as above
# [6] = target: recombinant homotrimeric HA, A/northern shoveler/California/HKWF115/07 (Influenza A virus A/northern …); assay: as above
# [7] = target: T3, recombinant homotrimeric HA, A/Egypt/3300-NAMRU3/08 H5N1 (Influenza A virus …); assay: as above
# [8] = target: T1, recombinant homotrimeric HA, …; assay: trimeric HA microarray; transfection supernatant set 5
# [9] = target: T4, recombinant homotrimeric HA, A/swine/Ontario/01911-2/99 H4N6 (Influenza A virus …); assay: as above
# [10] = target: T3, recombinant homotrimeric HA, …; assay: as above
# [11] = target: recombinant homotrimeric HA, A/Wisconsin/67/05 H3N2 (Influenza A virus A/Wisconsin/67/05 …)
# [12] = target: recombinant homotrimeric HA, A/Hong Kong/2108/03 H9N2 (Influenza A virus A/Hong Kong/2108/03 …); assay: trimeric HA microarray; transfection supernatant set 2
# [13] = target: T4, recombinant homotrimeric HA, …; assay: as above
# [14] = target: recombinant homotrimeric HA, A/Netherlands/219/03 H7N7 (Influenza A virus A/Netherlands/219/03 …)
# [15] = target: T2, recombinant homotrimeric HA, A/Solomon …; assay: trimeric HA microarray; transfection supernatant set 5
# [16] = target: recombinant homotrimeric HA, A/Indonesia/5/05 H5N1 (Influenza A virus A/Indonesia/5/05 …)
# [17] = target: recombinant homotrimeric HA, A/Vietnam/1203/04 H5N1 (Influenza A virus A/Vietnam/1203/04 …)
# [18] = target: recombinant homotrimeric HA, A/Japan/305/57 H2N2 (Influenza A virus A/Japan/305/57 (H2N2))
# [19] = target: T2, recombinant homotrimeric HA, A/Solomon …; assay: trimeric HA microarray; transfection supernatant set 3
# [20] = target: T2, recombinant homotrimeric HA, A/Solomon …; assay: trimeric HA microarray; transfection supernatant set 1
# [21] = target: T2, recombinant homotrimeric HA, A/Solomon …; assay: trimeric HA microarray; transfection supernatant set 4
# [22] = target: T1, recombinant homotrimeric HA, …; assay: as above
binder,measurement,setting,value
B1,Trimeric HA Binding: RLU,[1],1650 RLU
same,Trimeric HA Binding: RLU,[2],37500 RLU
same,Trimeric HA Binding: RLU,[3],49300 RLU
same,Trimeric HA Binding: RLU,[4],11800 RLU
same,Trimeric HA Binding: RLU,[5],17300 RLU
same,Trimeric HA Binding: RLU,[6],54400 RLU
same,Trimeric HA Binding: RLU,[7],55400 RLU
B2,Trimeric HA Binding: RLU,[8],33800 RLU
same,Trimeric HA Binding: RLU,[9],3280 RLU
same,Trimeric HA Binding: RLU,[10],33500 RLU
same,Trimeric HA Binding: RLU,[11],1940 RLU
B3,Trimeric HA Binding: RLU,[1],17900 RLU
same,Trimeric HA Binding: RLU,[12],25500 RLU
same,Trimeric HA Binding: RLU,[2],21500 RLU
same,Trimeric HA Binding: RLU,[13],30100 RLU
same,Trimeric HA Binding: RLU,[3],20100 RLU
same,Trimeric HA Binding: RLU,[5],19700 RLU
same,Trimeric HA Binding: RLU,[7],23600 RLU
same,Trimeric HA Binding: RLU,[14],49100 RLU
same,Trimeric HA Binding: RLU,[11],35800 RLU
B4,Trimeric HA Binding: RLU,[1],4300 RLU
same,Trimeric HA Binding: RLU,[11],27800 RLU
B5,Trimeric HA Binding: RLU,[1],6280 RLU
same,Trimeric HA Binding: RLU,[2],21200 RLU
same,Trimeric HA Binding: RLU,[13],2250 RLU
same,Trimeric HA Binding: RLU,[3],36300 RLU
same,Trimeric HA Binding: RLU,[4],49200 RLU
same,Trimeric HA Binding: RLU,[5],26500 RLU
same,Trimeric HA Binding: RLU,[6],21900 RLU
same,Trimeric HA Binding: RLU,[7],23900 RLU
same,Trimeric HA Binding: RLU,[14],5420 RLU
same,Trimeric HA Binding: RLU,[11],23700 RLU
B6,Trimeric HA Binding: RLU,[8],20200 RLU
same,Trimeric HA Binding: RLU,[15],44600 RLU
same,Trimeric HA Binding: RLU,[10],20000 RLU
same,Trimeric HA Binding: RLU,[11],14700 RLU
same,Trimeric HA Binding: RLU,[16],33900 RLU
same,Trimeric HA Binding: RLU,[17],19300 RLU
B7,Trimeric HA Binding: RLU,[11],2940 RLU
same,Trimeric HA Binding: RLU,[18],45 RLU
B8,Trimeric HA Binding: RLU,[8],23300 RLU
same,Trimeric HA Binding: RLU,[9],12200 RLU
same,Trimeric HA Binding: RLU,[15],49600 RLU
same,Trimeric HA Binding: RLU,[11],25200 RLU
same,Trimeric HA Binding: RLU,[16],31200 RLU
same,Trimeric HA Binding: RLU,[17],19200 RLU
B9,Trimeric HA Binding: RLU,[5],3270 RLU
same,Trimeric HA Binding: RLU,[19],11000 RLU
same,Trimeric HA Binding: RLU,[20],6780 RLU
same,Trimeric HA Binding: RLU,[21],371 RLU
same,Trimeric HA Binding: RLU,[15],37600 RLU
B10,Trimeric HA Binding: RLU,[1],19800 RLU
same,Trimeric HA Binding: RLU,[12],33600 RLU
same,Trimeric HA Binding: RLU,[2],44600 RLU
same,Trimeric HA Binding: RLU,[13],49200 RLU
same,Trimeric HA Binding: RLU,[3],22600 RLU
same,Trimeric HA Binding: RLU,[5],26900 RLU
same,Trimeric HA Binding: RLU,[6],28400 RLU
same,Trimeric HA Binding: RLU,[7],36800 RLU
same,Trimeric HA Binding: RLU,[14],47200 RLU
same,Trimeric HA Binding: RLU,[11],46000 RLU
B11,Trimeric HA Binding: RLU,[22],27000 RLU
same,Trimeric HA Binding: RLU,[21],60 RLU

# — patent US20150104459A1, “Compositions and Methods for the Therapy and Diagnosis of Influenza” (published 2015)
